Experimental data: PubChem BioAssay AID504761 (Drosophila RNAi Screening Center, 2011)
The deposit covers about 22,000 reagents; this is a random part of those that have a named target and a result. In the full data, 116 (0.52%) got an active call. 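Calls depend on retest data that are not deposited; infection was ranked per plate without normalising between plates; the unit of the infection score is not given.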 Raw values vary from plate to plate and are shown uncorrected. Further read-outs or replicates are left out here. The record does not give: the amount of reagent, the time to read-out.

- Purpose: 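Genome-wide fly cell screen for genes dengue virus requires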 (primary screen)
- Cell system: D.Mel-2 cells from Drosophila
- Reagents: long dsRNA against Drosophila genes
- Conditions: infection with dengue virus type 2; dose and infection time not stated
- Measured: 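Per well on two replicate plates, imaging gave the percent of cells positive for viral envelope protein, ranked by infection, and a nuclear count of cells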
- Direction: infection score: higher = more virus-infected cells; cell count: higher = more cells in the well
- Rule for the call: 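Very low infection ranking in both replicate wells (chance probability at most 0.065), then a retest showing infection dropped 1.5-fold or more at p below 0.05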
- Calls: active = confirmed: knock-down lowers infection; inactive = not picked or not confirmed

no.	Target gene	DRSC id	infection score, replicate 1	infection score, replicate 2	cell count, replicate 1	call
1	CG6867 (GeneID 32782)	DRSC20013	1.27	0.4	6231	inactive
2	CG6867 (GeneID 32782)	DRSC25889	3.37	2.15	6322	inactive
3	CG9426 (GeneID 34719)	DRSC03219	4.22	1.95	5920	inactive
4	CG15403 (GeneID 33527)	DRSC00417	7.3	4.06	6599	inactive
5	Reph (GeneID 47399)	DRSC00634	1.75	2.39	6528	inactive
6	Reph (GeneID 47399)	DRSC22031	1.9	6.67	6271	inactive
7	Reph (GeneID 47399)	DRSC29417	9.71	5.99	5263	inactive
8	KaiR1D (GeneID 42473)	DRSC15516	1.23	7.87	405	inactive
9	unpg (GeneID 35942)	DRSC07713	7.13	3.87	6468	inactive
10	unpg (GeneID 35942)	DRSC28861	22.7	5.05	4652	inactive
11	Ugt36F1 (GeneID 35137)	DRSC02601	7.42	2.78	5428	inactive

Ordered by “infection score, replicate 1” (highest first): some entries from above
Target gene	DRSC id	infection score, replicate 1	infection score, replicate 2	cell count, replicate 1	call
CG15403 (GeneID 33527)	DRSC00417	7.3	4.06	6599	inactive
CG9426 (GeneID 34719)	DRSC03219	4.22	1.95	5920	inactive

Continued.
no.	Target gene	DRSC id	infection score, replicate 1	infection score, replicate 2	cell count, replicate 1	call
12	CG31717 (GeneID 318911)	DRSC01121	2.09	0.19	6494	inactive
13	CG7694 (GeneID 42230)	DRSC16288	14.5	16.2	6426	inactive
14	CG3191 (GeneID 31209)	DRSC18530	1.11	3.5	6036	inactive
15	CG3191 (GeneID 31209)	DRSC29390		9.12	326	inactive
16	CG7443 (GeneID 40992)	DRSC16244	6.38	6.82	6333	inactive
17	CG14131 (GeneID 39328)	DRSC10135	1.51	3.68	6087	inactive
18	CG14131 (GeneID 39328)	DRSC27727	14.6	6.96	5264	inactive
19	CG10301 (GeneID 42797)	DRSC14226	3.34	15.9	5626	inactive
20	CG17855 (GeneID 34269)	DRSC02638	0.28		712	inactive
21	CG9240 (GeneID 32505)	DRSC20177	2.94	14.1	6159	inactive
22	TAF1B (GeneID 41242)	DRSC16001	29.8	19.2	5373	inactive
23	FANCI (GeneID 35895)	DRSC06416	17.7	14.2	4451	inactive
